Record: PubChem BioAssay AID624099 (ICCB-Longwood, 2012)
In all, the deposit lists about 21,000 reagents; below is an unselected part. 497 of them (2.4%) were called active. 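Higher z means weaker E2 silencing; only reporter increases were scored, and knock-downs that hurt cell survival may mask genuine repressor factors.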 A number with no mark means an inactive call. The numbers tell different reagents against one gene apart. Reagent sequences are not shown.

Aim: 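Knock-downs relieving repression by E2 of an HPV18 LCR luciferase reporter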 (primary screen)
Cells: human C33A cervical carcinoma cells (HPV-negative) stably expressing BPV1 E2 and an HPV18 LCR luciferase reporter
Reagents: siRNA pool against human genes, 40 nM
Time to read-out: 72 h
Read-out: 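HPV18 LCR reporter light per well, converted to plate-wise z-scores that exclude control wells, and averaged over triplicate plates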
Scale: mean z-score and z-score: higher = stronger reporter signal, weaker E2 silencing
Rule for the call: 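Mean z ≥ 2 together with z ≥ 2 in two or more of the three replicates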

target	pool no.	mean z-score	z-score, replicate A	z-score, replicate B	z-score, replicate C
PGF (GeneID 5228)	1	0.01	-0.04	-0.06	0.12
OR13C2 (GeneID 392376)	1	1.39	1.39	1.28	1.51
GKN1 (GeneID 56287)	1	-1.38	-1.1	-1.56	-1.49
DPY30 (GeneID 84661)	1	1.16	1.31	0.98	1.21
ANKDD1A (GeneID 348094)	1	-0.06	0.19	-0.21	-0.17
YIF1A (GeneID 10897)	1	-0.01	0.04	-0.17	0.09
KCNN4 (GeneID 3783)	1	-0.57	-0.56	-0.52	-0.64
EIF4HP1 (GeneID 401316)	1	0.56	0.9	0.23	0.55
EIF4HP1 (GeneID 401316)	2	0.31	0.22	0.37	0.34
CTHRC1 (GeneID 115908)	1	1.04	1.1	1.03	1
KCNQ2 (GeneID 3785)	1	-0.1	-0.34	0.04	0
PSMB4 (GeneID 5692)	1	-0.22	0.38	-0.41	-0.62
FBXW2 (GeneID 26190)	1	1.55	1.51	1.58	1.56
HGS (GeneID 9146)	1	-0.85	-0.92	-0.96	-0.67
SLC11A2 (GeneID 4891)	1	-0.45	-0.43	-0.13	-0.8
RFXAP (GeneID 5994)	1	-0.71	-0.75	-0.8	-0.57
HOXA10 (GeneID 3206)	1	-1.01	-1.35	-0.92	-0.77
SLC25A29 (GeneID 123096)	1	-0.72	-0.56	-0.71	-0.89
SBDS (GeneID 51119)	1	0.2	0.09	0.16	0.34
GMCL2 (GeneID 64396)	1	-0.95	-0.74	-1.2	-0.92
OSBPL9 (GeneID 114883)	1	-0.16	-0.38	-0.29	0.19
TOMM5 (GeneID 401505)	1	0.4	0.9	0.09	0.21
MT2A (GeneID 4502)	1	-0.6	-0.4	-0.49	-0.92
STUB1 (GeneID 10273)	1	-0.46	-0.29	-0.47	-0.61
PRR22 (GeneID 163154)	1	-0.72	-0.8	-0.92	-0.44
PPP1R10 (GeneID 5514)	1	-0.37	-0.01	-0.29	-0.83
LHFPL6 (GeneID 10186)	1	0.17	0.54	0.01	-0.06
CAPG (GeneID 822)	1	-0.19	-0.85	0.23	0.05
ROMO1 (GeneID 140823)	1	0.57	0.36	0.2	1.14
ZNF773 (GeneID 374928)	1	0.17	0.26	0.22	0.03
MYOD1 (GeneID 4654)	1	-0.81	-0.67	-0.7	-1.04
STARD6 (GeneID 147323)	1	-0.16	-0.45	-0.27	0.23
STAG1 (GeneID 10274)	1	0.3	0.02	0.45	0.42
ZNF184 (GeneID 7738)	1	-0.95	-0.88	-0.84	-1.13
NSUN5P1 (GeneID 155400)	1	-0.87	-0.9	-0.21	-1.51
ZKSCAN3 (GeneID 80317)	1	-0.59	-0.75	-0.62	-0.41
NT5DC2 (GeneID 64943)	1	-0.12	-0.35	0.07	-0.08
PRRG3 (GeneID 79057)	1	-1.58	-1.37	-1.66	-1.7
WTIP (GeneID 126374)	1	-0.69	-0.87	-0.44	-0.77
TRPV4 (GeneID 59341)	1	1.89	1.69	2.24	1.74
BPY2B (GeneID 442867)	1	-0.49	-0.32	-0.52	-0.64
TCIRG1 (GeneID 10312)	1	-1.59	-1.51	-1.85	-1.4
MT-ND5 (GeneID 4540)	1	1.92	1.86	1.74	2.16
LGALS1 (GeneID 3956)	1	-0.76	-1.01	-0.69	-0.59
LOC284240 (GeneID 284240)	1	-0.58	-0.62	-0.66	-0.46
PKD2L1 (GeneID 9033)	1	0	-0.01	0.16	-0.16
AKIRIN1 (GeneID 79647)	1	-0.19	-0.01	-0.2	-0.36
ANXA2P3 (GeneID 305)	1	0.03	-0.01	0.42	-0.33
GOLIM4 (GeneID 27333)	1	0.02	-0.31	-0.05	0.42
LAPTM4A (GeneID 9741)	1	-1.22	-1.19	-1.5	-0.97
FRMD8P1 (GeneID 83957)	1	0.95	1.02	0.69	1.13
TRIM46 (GeneID 80128)	1	-0.31	-0.37	-0.56	0.01
LINC03042 (GeneID 389649)	1	-0.28	-0.54	-1.03	0.74
WDPCP (GeneID 51057)	1	1.28	0.29	1.81	1.73
GARS1 (GeneID 2617)	1	1.46	1.38	1.78	1.21
BIRC7 (GeneID 79444)	1	-0.95	-1.22	-0.69	-0.92
OR10P1 (GeneID 121130)	1	-0.54	-0.59	-0.4	-0.63
NCKIPSD (GeneID 51517)	1	0.46	-0.51	0.82	1.08
ZNF19 (GeneID 7567)	1	-0.43	-0.34	-0.36	-0.6
RFX3 (GeneID 5991)	1	-1.33	-1.48	-1.48	-1.02
RAD51 (GeneID 5888)	1	1.77	1.49	1.77	2.05
MS4A2 (GeneID 2206)	1	0.14	0.28	0.44	-0.3
CLIC6 (GeneID 54102)	1	-0.75	-0.47	-0.75	-1.02
PRND (GeneID 23627)	1	-1.65	-1.63	-1.45	-1.86
LMF2 (GeneID 91289)	1	-2.42	-2.34	-2.22	-2.7
PIP4K2B (GeneID 8396)	1	-0.41	-0.55	-0.37	-0.3
TANC2 (GeneID 26115)	1	-0.88	-0.66	-0.74	-1.23
TSNAXIP1 (GeneID 55815)	1	-0.29	-0.89	0.12	-0.08
CPNE2 (GeneID 221184)	1	0.23	0.05	0.6	0.04
RAD51B (GeneID 5890)	1	1.91	1.85	2.24	1.66
DYNLL1 (GeneID 8655)	1	-0.78	-0.71	-0.93	-0.69
VPS9D1 (GeneID 9605)	1	-1.11	-0.88	-1.28	-1.18
WNT7B (GeneID 7477)	1	-1.07	-1.22	-1	-1

An excerpt from above, limited to “z-score, replicate B”:
OR10P1 (GeneID 121130) = -0.4
NCKIPSD (GeneID 51517) = 0.82
ZNF19 (GeneID 7567) = -0.36
RFX3 (GeneID 5991) = -1.48
RAD51 (GeneID 5888) = 1.77
MS4A2 (GeneID 2206) = 0.44
CLIC6 (GeneID 54102) = -0.75
